Experiments:
[1] = Cooling tower field trial, Example 2: feed time and biocide consumption; details: for Consumption rate / Feed Time: slug dose 3 times/week to 0.5 ppm free Cl2; for Consumption rate: 14,000 gallon cooling tower; for Feed Time: cooling tower pH about 9.1; for total weight of biocide consumed over 30-day test period: slug dose three times a week to about 0.5 mg/L “free chlorine”
[2] = Cooling tower field trial, Example 2: copper corrosion; details: slug dose 3 times/week, 0.5 ppm free Cl2
[3] = Cooling tower field trial, Example 3: halogen residuals; details: cooling tower water; average of several analyses
[4] = HVAC/process cooling system field test, Example 4: feed time, residual, consumption, ORP; details: 16,000 gallon HVAC/process cooling system; for Halogen residual as free Cl2: pH 8.3 to 8.8

CC1(C)C(=O)N(Br)C(=O)N1Br [DBDMH, 1,3-dibromo-5,5-dimethylhydantoin]
Consumption rate [1]: 7 lbs/month | Feed Time [1]: <0.5 h | total weight of biocide consumed over 30-day test period [1]: 7 lbs | Copper corrosion [2]: 0.13 mpy | free halogen residual (as Cl2) [3]: 0.79 mg/L | total halogen residual (as Cl2) [3]: 0.82 mg/L | Typical ORP [4]: 500-600 mV | Halogen residual as free Cl2 [4]: >1.0 ppm

CC1(C)C(=O)N(Cl)C(=O)N1Br [BCDMH, N,N′-bromochloro-5,5-dimethylhydantoin, reference compound]
Consumption rate [1]: 25 lbs/month | Feed Time [1]: 1 to 5 h | total weight of biocide consumed over 30-day test period [1]: 25 lbs | Copper corrosion [2]: 0.34 mpy | Typical ORP [4]: 400-500 mV | Halogen residual as free Cl2 [4]: <0.3 ppm
